A mixed list of measured activities; the numbers were collected in NIAID ChemDB.

All rows: tests in culture; agent: Parainfluenza virus; method: cytopathic effect; measure: EC50

ECn: concentration that inhibits the pathogen or its effect by n%. Neighbouring rows are from separate reports. Blank or dashed fields: not listed here.

SMILES,cells,strain or isolate,value
O=c1ccn([C@@H]2O[C@@H](CO)[C@H](O)[C@H]2O)c(=O)[nH]1,VERO B,TYPE 3,>1000 µM
NC(=O)c1csc([C@@H]2O[C@H](CO)[C@@H](O)[C@H]2O)n1,HeLa,TYPE 3/C243,11 µg/mL
Nc1ncnc2c1c(Br)cn2[C@@H]1O[C@H](CO)[C@@H](O)[C@H]1O,VERO,TYPE 3,0.07 µg/mL
Nc1ncnc2c1ncn2[C@@H]1C=C(CO)[C@@H](O)[C@H]1O,VERO,TYPE 3,0.2 µg/mL
Cc1cn([C@H]2C[C@@H](O)[C@H](CO)O2)c(=O)[nH]c1=O,VERO B,TYPE 3,>1000 µM
Nc1ncnc2c1ncn2[C@@H]1C[C@H](CO)[C@@H](O)C1,VERO,TYPE 3,>100 µg/mL
C/C=C/Cc1cn([C@@H]2O[C@H](CO)[C@@H](O)[C@H]2O)c2ncnc(N)c12,VERO,TYPE 3,1 µg/mL
Cc1cn([C@@H]2C[C@H](CO)[C@H](O)C2)c(=O)[nH]c1=O,VERO,TYPE 3,>200 µg/mL
NC(=O)c1ncn([C@@H]2O[C@H](CO)[C@@H](O)[C@H]2O)n1,HEP-2,TYPE 3,12.5 µg/mL
C/C=C1\[C@H](OC2O[C@H](CO)[C@@H](O)[C@H](O)[C@H]2O)OC=C(C(=O)OC)[C@H]1CC(=O)OCC1O[C@H](OCCc2ccc(O)c(O)c2)[C@@H](O)[C@H](O)[C@H]1O,HEP-2,TYPE 3,72.9 µM
C[C@H](Cn1cnc2c(N)ncnc21)OCP(=O)(O)O,,TYPE 3,>525 µM
Nc1nc2c(ncn2[C@@H]2O[C@@H](CO)[C@H](O)[C@H]2O)c(=O)[nH]1,VERO B,TYPE 3,>1000 µM
COc1ccc(-c2cc(=O)c3c(OC)cc(OC)c([C@H]4C(=O)c5c(OC)cc(OC)cc5O[C@@H]4c4ccc(OC)cc4)c3o2)cc1,MA-104,C243 (TYPE 3),>32 µg/mL
Nc1nc(Cl)c2nnn(C[C@H]3CC[C@@H](CO)C3)c2n1,VERO,TYPE 3,>200 µg/mL
OC[C@H]1O[C@@H](n2cnc3cc(Cl)c(Cl)cc32)[C@@H](O)[C@@H]1O,HeLa,TYPE 3,>200 µg/mL
Cc1cn([C@H]2C[C@@H]3OC[C@H]2[C@@H]3CO)c(=O)[nH]c1=O,VERO,TYPE 3,>400 µg/mL
C#Cc1c(C(N)=O)ncn1[C@@H]1O[C@H](CO)[C@@H](O)[C@H]1O,VERO,TYPE 3,2 µg/mL
Cc1cn([C@H]2C[C@H](O)[C@@H](CO)[C@@H]2C)c(=O)[nH]c1=O,VERO,TYPE 3,>400 µg/mL
Nc1ncnc2c1ncn2C[C@H](O)CO,VERO,TYPE 3,7 µg/mL
Nc1nccc2c1ncn2[C@@H]1C[C@H](CO)[C@@H](O)[C@H]1O,VERO,TYPE 3,0.2 µg/mL
Nc1nccc2c1ncn2[C@@H]1C[C@H](CO)[C@@H](O)[C@H]1O,VERO,TYPE 3,2 µg/mL
Nc1ncnc2c1ncn2C[C@@H](CO)OCP(=O)(O)O,,TYPE 3,>50 µM
NC(=O)c1ncn([C@@H]2O[C@H](CO)[C@@H](O)[C@H]2O)n1,VERO,TYPE 3,40 µg/mL
OCCOC([C@H](O)CO)n1cnc2cc(Cl)c(Cl)cc21,HeLa,TYPE 3,>200 µg/mL
Nc1ncnc2c1ccn2[C@@H]1C[C@H](CO)[C@@H](O)[C@H]1O,VERO,TYPE 3,2 µg/mL
O[C@H]1[C@@H](O)COC(n2cnc3cc(Cl)c(Cl)cc32)[C@@H]1O,HeLa,TYPE 3,>400 µg/mL
Nc1ncnc2c1ccn2[C@@H]1O[C@H](CO)[C@H](O)[C@H]1O,VERO,TYPE 3,≥40 µg/mL
Nc1ncnc2c1ncn2C[C@@H](O)[C@H](O)C(=O)O,VERO,TYPE 3,150 µg/mL
Nc1nc2c(nnn2C[C@H]2CC[C@@H](CO)C2)c(=O)[nH]1,VERO,TYPE 3,>200 µg/mL
Nc1ncnc2c1ncn2C[C@H](O)CO,VERO,TYPE 3,100 µg/mL
Nc1nc(Cl)c2ncn(C[C@H]3CC[C@@H](CO)C3)c2n1,VERO,TYPE 3,>40 µg/mL
Nc1nc2c(ncn2[C@H]2C[C@@H](O)[C@H](CO)O2)c(=O)[nH]1,VERO B,TYPE 3,>1000 µM
CCC1[C@H](OC2O[C@H](CO)[C@@H](O)[C@H](O)[C@H]2O)OC=C(C(=O)O)[C@H]1CC(=O)OCCc1ccc(O)cc1,HEP-2,TYPE 3,41.7 µM
NC(=O)c1ncn([C@@H]2O[C@H](CO)[C@@H](O)[C@H]2O)c1C#CCO,VERO,TYPE 3,4 µg/mL
Nc1nccc2c1ncn2[C@@H]1C[C@H](CO)[C@@H](O)[C@H]1O,VERO,TYPE 3,0.2 µg/mL
Nc1cc(OC[C@H](CO)OCP(=O)(O)O)nc(N)n1,,TYPE 3,>15 µM
CC(C)[Si]1(C(C)C)OC[C@H]2O[C@@H](n3cnc4cc(Cl)c(Cl)cc43)[C@H](O)[C@H]2O[Si](C(C)C)(C(C)C)O1,HeLa,TYPE 3,>10 µg/mL
NC(=O)c1ncn([C@@H]2O[C@H](CO)[C@@H](O)[C@H]2O)c1C#CCCO,HeLa,TYPE 3,7 µg/mL
C/C=C1\[C@H](OC2O[C@H](CO)[C@@H](O)[C@H](O)[C@H]2O)OC=C(C(=O)O)[C@H]1CC(=O)OCCc1ccc(O)cc1,HEP-2,TYPE 3,15.6 µM
Nc1nc2c(ncn2COCOCP(=O)(O)O)c(=O)[nH]1,,C243 (TYPE 3),14 µg/mL
Clc1cc2nc[nH]c2cc1Cl,HeLa,TYPE 3,>10 µg/mL
Nc1nccc2c1ncn2[C@@H]1C[C@H](CO)[C@@H](O)[C@H]1O,VERO,VR-93 (TYPE 3),0.7 µg/mL

For reference, 4 entries again:

SMILES	cells	strain or isolate	value
Cc1cn([C@@H]2C[C@H](CO)[C@H](O)C2)c(=O)[nH]c1=O	VERO	TYPE 3	>200 µg/mL
OC[C@H]1O[C@@H](n2cnc3cc(Cl)c(Cl)cc32)[C@@H](O)[C@@H]1O	HeLa	TYPE 3	>200 µg/mL
Nc1ncnc2c1ncn2C[C@H](O)CO	VERO	TYPE 3	100 µg/mL
Nc1ncnc2c1ncn2C[C@@H](CO)OCP(=O)(O)O		TYPE 3	>50 µM